Results of unrelated studies side by side (data: NIAID ChemDB).

All rows: tests on isolated targets; organism: HIV-1; target: Integrase; method: 3′ processing; measure: IC50

ICn is the concentration giving n% inhibition. Blank or dashed fields: not listed here. Lines come from different laboratories, so protocols vary.

structure | mutations | result
CNC(=O)c1csc(NC(=O)c2csc(NC(=O)c3csc(NC(=O)CCCCCN)n3)n2)n1 | - | 9 µM
O=C(/C=C/c1ccc(O)c(O)c1)Oc1ccc2cccc(N=C=S)c2c1 | C65S | 3 µM
CN(C)CCCNC(=O)c1cc(NC(=O)c2cc(NC(=O)c3cc(NC(=O)CNC(=O)c4cc(NC(=O)c5cc(NC(=O)c6cc(NC(=O)CCCN)cn6C)cn5C)cn4C)cn3C)cn2C)cn1C | - | 0.75 µM
CCN1C/C(=C\c2cc(O)c(O)c(O)c2)C(=O)/C(=C/c2cc(O)c(O)c(O)c2)C1 | - | 0.5 µM
O=C(O)c1ccc(N=Nc2c(S(=O)(=O)O)cc3cc(S(=O)(=O)O)c(N=Nc4ccc(C(=O)O)cc4)c(O)c3c2O)cc1 | - | 2.5 µM
OC1/C(=C/c2ccc(Cl)c(Cl)c2)CSC/C1=C\c1ccc(Cl)c(Cl)c1 | - | >100 µM
O=C(C1=NS(=O)(=O)c2ccc(Cl)cc2S1)c1ccc(Cl)cc1 | INTG-C65S | 100 µM
COC(=O)c1nc(NC(=O)c2cc(NC(=O)c3cc(NC(=O)CCCN)cn3C)cn2C)cn1C | - | 130 µM
COc1ccc(/C=C2\C(=O)N(c3ccc(S(=O)(=O)O)cc3)NC2C(F)(F)F)cc1OCc1ccc(F)cc1 | - | >100 µM
O=C(O)C(=O)/C=C(\O)c1cn(Cc2ccccc2)c(=O)n(Cc2ccccc2)c1=O | - | 3.7 µM
Cc1ccc2cc(-c3ccccc3)c3ccc(C)nc3c2n1 | - | >100 µM
O=C(/C=C/c1ccc(O)c(O)c1)OCCc1ccc(NC(=S)SCCO)cc1 | C65S | 7 µM
Cc1ncc(COP(=O)(O)O)c(C=O)c1O | - | 25 µM
O=C(NCCCN1CCN(CCCNC(=O)c2cc3cc(O)c(O)cc3[nH]2)CC1)c1cc2cc(O)c(O)cc2[nH]1 | - | 5 µM
Cc1cc2c(cc1Cl)SC(C(=O)c1ccc3ccccc3c1)=NS2(=O)=O | INTG-C65S | 30 µM
O=C(NCCC(NC(=O)c1cc(O)c(O)c(O)c1)C(=O)O)c1cc(O)c(O)c(O)c1 | - | 0.54 µM
COC(=O)c1cc(NC(=O)c2cc(NC(=O)c3cc(NC(=O)c4nc(NC(=O)CCCN)cn4C)cn3C)cn2C)cn1C | - | 55 µM
O=C(Nc1ccc2c(O)c(N=Nc3cccc(C(=O)O)c3)c(S(=O)(=O)O)cc2c1)Nc1ccc2c(O)c(N=Nc3cccc(C(=O)O)c3)c(S(=O)(=O)O)cc2c1 | - | 0.5 µM
O=C(CCCCCNC(=O)CCCC[C@@H]1SC[C@@H]2NC(=O)N[C@@H]21)NCCCCCC(=O)NCc1cn(Cc2ccc(C(=O)c3cccc(/C(O)=C/C(=O)C(=O)O)c3)cc2)nn1 | - | >333 µM
CCN(CC)CCCC(C)Nc1cncc2ccccc12 | - | >300 µM
O=C(/C=C/c1ccc(O)c(O)c1)NCCCC(NC(=O)/C=C/c1ccc(O)c(O)c1)C(=O)O | - | 2.9 µM
CCOC(=O)c1nc(NC(=O)c2cc(NC(=O)c3nc(NC(=O)CCCN)cn3C)cn2C)cn1C | - | 300 µM
CN(C)CCCNC(=O)c1csc(NC(=O)c2csc(NC(=O)c3csc(NC(=O)CCCCCNC(=O)CN(CCN(CC(=O)O)CC(=O)O)CC(=O)O)n3)n2)n1 | - | 10 µM
Cc1ccc(C(=O)c2cccc(/C(O)=C/C(=O)C(=O)O)c2)cc1 | - | >333 µM
COc1ccc(/C=C2\C(=O)N(c3cccc(C)c3)NC2C(F)(F)F)cc1OCc1ccc(F)cc1 | - | >100 µM
Cc1cc(S(=O)(=O)NC2=NC3C=CSC3C(=O)N2)c(SCOc2ccccc2)cc1Cl | - | >100 µM
CN(C)CCCNC(=O)c1csc(NC(=O)CCCCCN)n1 | - | 1000 µM
O=C(NCCCC(NC(=O)c1cc(O)c(O)c(O)c1)C(=O)O)c1cc(O)c(O)c(O)c1 | - | 0.39 µM
O=C(C1=NS(=O)(=O)c2ccc(Cl)cc2S1)c1ccc2ccccc2c1 | INTG-C65S | 65 µM
O=C1/C(=C/c2cc(O)c(O)c(O)c2)CNC/C1=C\c1cc(O)c(O)c(O)c1 | - | 0.3 µM
O=C(O)CN(CCN(CC(=O)O)CC(=O)NCCCCCCNC(=O)c1csc(NC(=O)c2csc(NC(=O)CCCCCNC(=O)CN(CCN(CC(=O)O)CC(=O)O)CC(=O)O)n2)n1)CC(=O)O | - | 300 µM
CCN(CC)CCCC(C)Nc1cncc2cc(Cl)ccc12 | - | >300 µM
COC(=O)C(CCCNC(=O)/C=C/c1cc(O)c(O)c(O)c1)NC(=O)/C=C/c1cc(O)c(O)c(O)c1 | - | 0.74 µM
Cc1cc2c(cc1Cl)SC(C(=O)c1ccc(Cl)cc1)=NS2(=O)=O | INTG-C65S | 33 µM
NCCCCCC(=O)Nc1nc(C(=O)Nc2nc(C(=O)NC[C@H](O)CO)cs2)cs1 | - | 350 µM
O=C(NCCc1ccccc1)c1cc2cc3c(cc2[nH]1)OCO3 | - | >100 µM
NC(=O)c1cc(S(=O)(=O)Nc2nc3ccccc3c(=O)[nH]2)c(SCOc2ccccc2)cc1Cl | - | >100 µM
O=C1/C(=C/c2ccc(O)c(O)c2)CN(Cc2ccccc2)C/C1=C\c1ccc(O)c(O)c1 | - | 1.7 µM
Nc1ncnc2c1ncn2[C@@H]1CO[C@H](COP(=O)(O)O)C1 | - | >200 µM
O=C(O)CCc1ccc(N=Nc2c(S(=O)(=O)O)cc3cc(NC(=O)Nc4ccc5c(O)c(N=Nc6ccc(CCC(=O)O)cc6)c(S(=O)(=O)O)cc5c4)ccc3c2O)cc1 | - | 0.5 µM
Cc1cn([C@H]2C[C@H](O)[C@@H](COP(=O)(O)O[C@H]3[C@H](n4cnc5c(N)ncnc54)CO[C@@H]3COP(=O)(O)O)O2)c(=O)nc1N | - | 60 µM
Cc1cc(Cl)cc2c1S(=O)(=O)N=C(C(=O)c1ccc(Cl)cc1)S2 | INTG-C65S | 60 µM
CN(C)CCCNC(=O)c1csc(NC(=O)c2csc(NC(=O)CCCCCN)n2)n1 | - | 30 µM
O=C(O)C(=O)/C=C(\O)c1cc(=O)n(Cc2ccccc2)c(=O)n1Cc1ccccc1 | - | 62.5 µM
COC(=O)C(CCCNC(=O)c1ccc(O)c(O)c1)NC(=O)c1ccc(O)c(O)c1 | - | >10 µM
CCN(CC)CCCC(C)Nc1ccnc2c(OC)c(Cl)ccc12 | - | >300 µM
Cc1nc2c(ccc3c(C)c(C)c(C)nc32)c(C)c1C | - | >100 µM
COC(=O)c1cc(NC(=O)c2nc(NC(=O)c3cc(NC(=O)c4nc(NC(=O)CCCNC(=O)c5cc(NC(=O)c6cc(NC(=O)c7cc(NC(=O)c8nc(NC(=O)CCCN)cn8C)cn7C)cn6C)cn5C)cn4C)cn3C)cn2C)cn1C | - | 0.75 µM
Nc1ccn([C@@H]2CC[C@H](COP(=O)(O)O)O2)c(=O)n1 | - | 50 µM
O=C1/C(=C/c2cc(O)c(O)c(O)c2)CSC/C1=C\c1cc(O)c(O)c(O)c1 | - | 0.7 µM
COC(=O)C(CCCCNC(=O)/C=C/c1ccc(O)c(O)c1)NC(=O)/C=C/c1ccc(O)c(O)c1 | - | <10 µM
O=C(NCc1ccc2c(c1)OCO2)c1cc2cc3c(cc2[nH]1)OCO3 | - | >100 µM
Nc1ccn([C@@H]2CO[C@H](COP(=O)(O)O[C@H]3C[C@H](n4cnc5c(N)ncnc54)O[C@@H]3COP(=O)(O)O)[C@H]2O)c(=O)n1 | - | >1000 µM
O=C(Nc1ccc2c(O)c(N=Nc3cc(F)c(F)c(C(=O)O)c3F)c(S(=O)(=O)O)cc2c1)Nc1ccc2c(O)c(N=Nc3cc(F)c(F)c(C(=O)O)c3F)c(S(=O)(=O)O)cc2c1 | - | 1 µM
O=C(O)C(=O)/C=C(\O)c1cn(-c2ccc(C(F)(F)F)cc2)c(=O)n(-c2ccc(C(F)(F)F)cc2)c1=O | - | >33 µM
O=C(/C=C/c1ccc(O)c(O)c1)OCCc1ccccc1 | - | 5 µM
CCN(CC)CCCC(C)Nc1cncc2cc(F)ccc12 | - | >300 µM
O=C(NCCCCNC(=O)c1cc2cc(O)c(O)cc2[nH]1)c1cc2cc(O)c(O)cc2[nH]1 | - | 11 µM
O=C(/C=C/c1ccccc1)OCCc1ccc(N=C=S)cc1 | C56S | >100 µM
NCCCCCC(=O)Nc1nc(C(=O)Nc2nc(C(=O)Nc3nc(C(=O)Nc4nc(C(=O)NCC(O)CO)cs4)cs3)cs2)cs1 | - | 2.2 µM
COc1cc(C(=O)O)ccc1N=Nc1c(S(=O)(=O)O)cc2cc(NC(=O)Nc3ccc4c(O)c(N=Nc5ccc(C(=O)O)cc5OC)c(S(=O)(=O)O)cc4c3)ccc2c1O | - | 0.5 µM
CCOC(=O)c1nc(NC(=O)c2nc(NC(=O)c3cc(NC(=O)c4cc(NC(=O)CCCN)cn4C)cn3C)cn2C)cn1C | - | 4.2 µM
CC1=C(C#N)c2nc(N)c(C#N)c(C)c2/C1=C/c1ccc(-c2ccc(Cl)c(C(=O)O)c2)o1 | - | 9 µM
Cc1cc2c(cc1Cl)SC(C(=O)c1cccc([N+](=O)[O-])c1)=NS2(=O)=O | INTG-C65S | 95 µM
O=C(NCCCCCCNC(=O)c1cc2cc3c(cc2[nH]1)OCO3)c1cc2cc3c(cc2[nH]1)OCO3 | - | >100 µM
Oc1cc(O)cc(Oc2c(O)cc3c(c2O)Oc2cc(Oc4c(O)cc(O)cc4O)c(O)c(O)c2O3)c1 | - | 25.2 µM
O=C1/C(=C/c2cc(O)c(O)c(O)c2)CC/C1=C\c1cc(O)c(O)c(O)c1 | - | 1.6 µM
O=C(O)C(=O)/C=C(\O)c1cn(-c2ccccc2F)c(=O)n(-c2ccccc2F)c1=O | - | 4.1 µM

The last 7 rows once more:

structure	mutations	result
CCOC(=O)c1nc(NC(=O)c2nc(NC(=O)c3cc(NC(=O)c4cc(NC(=O)CCCN)cn4C)cn3C)cn2C)cn1C	-	4.2 µM
CC1=C(C#N)c2nc(N)c(C#N)c(C)c2/C1=C/c1ccc(-c2ccc(Cl)c(C(=O)O)c2)o1	-	9 µM
Cc1cc2c(cc1Cl)SC(C(=O)c1cccc([N+](=O)[O-])c1)=NS2(=O)=O	INTG-C65S	95 µM
O=C(NCCCCCCNC(=O)c1cc2cc3c(cc2[nH]1)OCO3)c1cc2cc3c(cc2[nH]1)OCO3	-	>100 µM
Oc1cc(O)cc(Oc2c(O)cc3c(c2O)Oc2cc(Oc4c(O)cc(O)cc4O)c(O)c(O)c2O3)c1	-	25.2 µM
O=C1/C(=C/c2cc(O)c(O)c(O)c2)CC/C1=C\c1cc(O)c(O)c(O)c1	-	1.6 µM
O=C(O)C(=O)/C=C(\O)c1cn(-c2ccccc2F)c(=O)n(-c2ccccc2F)c1=O	-	4.1 µM